According to PMC10112228:

Target: His-CcpA (nonphosphorylated) (Streptococcus pneumoniae D39) (UniProt A0A0H2ZQ65)
Test: competition with a labelled probe
Settings: 100x excess unlabeled Pcps2A as specificity competitor; recombinant protein; residues 1-336; protein details: His-tag (pET14b); label: 32P end-label; probe letters rebuilt from the primers and the genome

Sequence: CTTTCTGTGAACGTGATTTTTTAAAACGTCTACTCATGATTAACACCTATACATTGAACATCTTACGATTATATCACTTTTTTACGGTAATGTCTACACCTTTTTTCACTATCTGCATCTTTAAGTATCTTAGTAGACTTCCCGCGAACCAAAAATATAGTAAAATGAAATAAGAACATGACAAATTGATCAGGACAGTCAAATCGTTTTCTAACAATATTTTAGAAGCAGATGTGTACTATTCTAGTTTCAATATAATATAGTACACAATGTGGTATAATCTTTTT (double strand) [Pcps2A (-250/+35)]
- binding result: binds

For at least one entry, the source does not settle the construct or the ends of the probe. At least one verdict was read from the data and is not stated in words by the source.
